Results on one substance are retold here after patent US10184933B2, “Compositions, systems and methods for gene expression noise drug screening and uses thereof” (priority 2013, dated 2019).

This assay relates to latent HIV-1 in JLat 8.6 cells. Type of assay: cell-based.

On to bleomycin [V66], for which the “synergy in reactivation of HIV-1 latency” value is “synergized”.
